Experiments:
Assay in all cases: Fluorometric Activity Assay
Details in all cases: pH 5.5; 30 °C
[1] = target: T1, Dimer of Gag-Pol polyprotein [489-587,M535I,L552P,A560V,V571F,I573V] (Human immunodeficiency virus 1, UniProt P04585, A560V/I573V/L552P/M535I/V571F)
T1 construct: 489-587
Description: (§1) Enzymatic activity was determined with fluorogenic substrate in the presence and absence of inhibitor. The fluorescence increase due to hydrolysis of the substrate was monitored with an excitation filter of wavelength 340 nm and an emission filter of wavelength 420. Values for the inhibition constants (Ki) were determined by conventional steady-state kinetic techniques.

[2] = target: T2, Dimer of Gag-Pol polyprotein [489-587,I539V] (Human immunodeficiency virus 1, UniProt P04585, I539V)
T2 construct: 489-587
Description: as §1

[3] = target: T3, Dimer of Gag-Pol polyprotein [489-587,L499I,L508Q,K509R,E524D,M525I,S526N,M535I,I539V,I543V,I551V,L552P,A560V,V571A,L579M] (Human immunodeficiency virus 1, UniProt P04585, A560V/E524D/I539V/I543V/I551V/K509R/L499I/L508Q/L552P/L579M/M525I/M535I/S526N/V571A)
T3 construct: 489-587
Description: as §1

## CC(C)CN(C[C@@H](O)[C@H](Cc1ccccc1)NC(=O)O[C@H]1CCOC1)S(=O)(=O)c1ccc(N)cc1 [VX-478]
[1]
  Ki: 2.3 nM
[2]
  Ki: 4.9 nM
[3]
  Ki: 58 nM

Source: BindingDB's records for doi:10.1021/bi0488799 (Glaxosmithkline, 2004)
